Consider 1 substance from patent US20240336672A1.

Among the targets are Insulin; Tg; MAPK14; KLH (keyhole limpet); LZ.
Common to all, as to test: polyreactivity ELISA
Holding throughout (design): unit not given beside the values

Turning to mGO53 (antibody), the AUC (polyreactivity ELISA) with Insulin is 0.6; with Tg, 0.6; with MAPK14 it was 0.5; in the assay with KLH (keyhole limpet), 0.6; with LZ, 0.6.
